{"source": "paper PMC4387594", "about": "“Pentacycloundecane lactam vs lactone norstatine type protease HIV inhibitors: binding energy calculations and DFT study” (Journal of Biomedical Science, 2015)", "biological_target": "T1, wild type C-South African (C-SA) HIV-1 protease (Human immunodeficiency virus type 1 group M subtype B, UniProt P12497, H557K/I503V/I581L/L507I/L577M/M524I/R529K/T500S)", "T1 construct": "Over-expression, extraction and purification of the C-SA protease and in vitro HIV-1 protease activity were reported in our earlier publications; made in house", "experiment": "in vitro HIV-1 protease inhibition (C-SA PR)", "assay_type": "biochemical, HIV-1 subtype C", "text": "Over-expression, extraction and purification of the C-SA protease and in vitro HIV-1 protease activity were reported in our earlier publications. Genetic diversity among HIV-1 subtypes ranges between 25 and 35% at the nucleotide level and variation within subtypes vary from 15 to 20% [48, 49]. Thus, both the high mutation rate within the HIV PR and the genetic variation of HIV is an ongoing challenge toward finding a potent protease inhibitor (PI) with reasonable inhibition of various HIV subtypes.\nThe HIV-1 subtype C PR that predominates in South Africa (C-SA PR) is defined as the consensus subtype C PR [51]. This C-SA PR contains eight polymorphic sites (T12S, I15V, L19I, M36I, R41K, H69K, L89M, and I93L) in relation to the wild-type subtype B HIV-1 PR [52]. Multiple sequence alignment of the C-SA PR, subtype B PR, subtype B-MDR PR, and subtype C-2R8N PR confirmed that subtype C of South African HIV-1 protease is structurally very close to the rest of the HIV-1 proteases.\nThe procedures followed were the same as reported before ^12,13."}
{"smiles": "Cc1cccc(C)c1OCC(=O)N[C@@H](Cc1ccccc1)[C@@H](O)C[C@H](Cc1ccccc1)NC(=O)[C@H](C(C)C)N1CCCNC1=O", "note": "[Lopinavir, reference compound]", "values": [{"measurement": "IC50", "value": "25 ± 1.4", "unit": "nM"}]}
